Assay results as given in PMC6669600 (Viruses, 2019).

Key:
[1] = tested on: HIV-1HXB2 Env-mediated cell-cell fusion; type: cell-based; settings: TZM-bl target, HL2/3 effector, 6 h coculture at 37 C, luciferase; triplicate, repeated three times, mean ± SD; SD; read-out: IC50, inhibition of HIV-1HXB2 Env-mediated cell-cell fusion
[2] = molecular target: N36 (gp41 NHR-derived target mimic peptide) (Human immunodeficiency virus type 1 group M subtype B, UniProt P04578); assay: CD spectroscopy of inhibitor complexed with N36; type: binding, HIV-1; settings: thermal denaturation of complex at 222 nm, 20-98 C, 2 C/min, each peptide 10 μM in PBS; repeated two times, representative data

CC[C@H](C)[C@H](NC(=O)[C@H](CC(C)C)NC(=O)[C@H](CCC(=O)O)NC(=O)[C@H](CCC(=O)O)NC(=O)[C@@H](NC(=O)[C@H](CCCCN)NC(=O)[C@H](CCCCN)NC(=O)[C@@H](NC(=O)[C@H](Cc1ccc(O)cc1)NC(=O)[C@H](CCC(=O)O)NC(=O)[C@H](CCC(=O)O)NC(=O)[C@@H](NC(=O)[C@H](CCCCN)NC(=O)[C@H](CCCCN)NC(=O)[C@H](CC(=O)O)NC(=O)[C@H](Cc1c[nH]c2ccccc12)NC(=O)[C@H](CCC(=O)O)NC(=O)[C@H](CCC(=O)O)NC(=O)[C@H](Cc1c[nH]c2ccccc12)NC(=O)[C@@H](NC(=O)[C@H](CCSC)NC(C)=O)[C@@H](C)O)[C@@H](C)CC)[C@@H](C)O)[C@@H](C)CC)C(=O)N[C@@H](CCCCN)C(=O)N[C@@H](CCCCN)C(=O)N[C@@H](CO)C(=O)N[C@@H](CCC(=O)O)C(=O)N[C@@H](CCC(=O)O)C(=O)N[C@@H](CCC(N)=O)C(=O)N[C@@H](CCC(N)=O)C(=O)N[C@@H](CCCCN)C(=O)N[C@@H](CCCCN)C(N)=O [MT-SC28EK]
IC50 [1]: 1200 ± 600 pM
CD data (with N36) Tm (°C) [2]: 69.1 °C

CC[C@H](C)[C@H](NC(=O)[C@H](CC(C)C)NC(=O)[C@H](CCC(=O)O)NC(=O)[C@H](CCC(=O)O)NC(=O)[C@@H](NC(=O)[C@H](CCCCN)NC(=O)[C@H](CCCCN)NC(=O)[C@@H](NC(=O)[C@H](Cc1ccc(O)cc1)NC(=O)[C@H](CCC(=O)O)NC(=O)[C@H](CCC(=O)O)NC(=O)[C@@H](NC(=O)[C@H](CCCCN)NC(=O)[C@H](CCCCN)NC(=O)[C@H](CC(=O)O)NC(=O)[C@H](Cc1c[nH]c2ccccc12)NC(=O)[C@H](CCC(=O)O)NC(=O)[C@H](CCC(=O)O)NC(=O)[C@H](Cc1c[nH]c2ccccc12)NC(=O)[C@@H](NC(=O)[C@H](CCSC)NC(C)=O)[C@@H](C)O)[C@@H](C)CC)[C@@H](C)O)[C@@H](C)CC)C(=O)N[C@@H](CCCCN)C(=O)N[C@@H](CCCCN)C(=O)N[C@@H](CO)C(=O)N[C@@H](CCC(=O)O)C(=O)N[C@@H](CCC(=O)O)C(=O)N[C@@H](CCC(N)=O)C(=O)N[C@@H](CCC(N)=O)C(=O)N[C@@H](CCCCN)C(=O)N[C@@H](CCCCN)C(=O)N[C@@H](CC(N)=O)C(N)=O [MT-SC29EK]
IC50 [1]: 1100 ± 200 pM
CD data (with N36) Tm (°C) [2]: 73 °C

CC[C@H](C)[C@H](NC(=O)[C@H](CC(C)C)NC(=O)[C@H](CCC(=O)O)NC(=O)[C@H](CCC(=O)O)NC(=O)[C@@H](NC(=O)[C@H](CCCCN)NC(=O)[C@H](CCCCN)NC(=O)[C@@H](NC(=O)[C@H](Cc1ccc(O)cc1)NC(=O)[C@H](CCC(=O)O)NC(=O)[C@H](CCC(=O)O)NC(=O)[C@@H](NC(=O)[C@H](CCCCN)NC(=O)[C@H](CCCCN)NC(=O)[C@H](CC(=O)O)NC(=O)[C@H](Cc1c[nH]c2ccccc12)NC(=O)[C@H](CCC(=O)O)NC(=O)[C@H](CCC(=O)O)NC(=O)[C@H](Cc1c[nH]c2ccccc12)NC(=O)[C@@H](NC(=O)[C@H](CCSC)NC(C)=O)[C@@H](C)O)[C@@H](C)CC)[C@@H](C)O)[C@@H](C)CC)C(=O)N[C@@H](CCCCN)C(=O)N[C@@H](CCCCN)C(=O)N[C@@H](CO)C(=O)N[C@@H](CCC(=O)O)C(=O)N[C@@H](CCC(=O)O)C(=O)N[C@@H](CCC(N)=O)C(=O)N[C@@H](CCC(N)=O)C(=O)N[C@@H](CCCCN)C(=O)N[C@@H](CCCCN)C(=O)N[C@@H](CC(N)=O)C(=O)N[C@@H](CCC(=O)O)C(N)=O [MT-SC30EK]
IC50 [1]: 800 ± 200 pM
CD data (with N36) Tm (°C) [2]: 77.4 °C

CC[C@H](C)[C@H](NC(=O)[C@H](CC(C)C)NC(=O)[C@H](CCC(=O)O)NC(=O)[C@H](CCC(=O)O)NC(=O)[C@@H](NC(=O)[C@H](CCCCN)NC(=O)[C@H](CCCCN)NC(=O)[C@@H](NC(=O)[C@H](Cc1ccc(O)cc1)NC(=O)[C@H](CCC(=O)O)NC(=O)[C@H](CCC(=O)O)NC(=O)[C@@H](NC(=O)[C@H](CCCCN)NC(=O)[C@H](CCCCN)NC(=O)[C@H](CC(=O)O)NC(=O)[C@H](Cc1c[nH]c2ccccc12)NC(=O)[C@H](CCC(=O)O)NC(=O)[C@H](CCC(=O)O)NC(=O)[C@H](Cc1c[nH]c2ccccc12)NC(=O)[C@@H](NC(=O)[C@H](CCSC)NC(C)=O)[C@@H](C)O)[C@@H](C)CC)[C@@H](C)O)[C@@H](C)CC)C(=O)N[C@@H](CCCCN)C(=O)N[C@@H](CCCCN)C(=O)N[C@@H](CO)C(=O)N[C@@H](CCC(=O)O)C(=O)N[C@@H](CCC(=O)O)C(=O)N[C@@H](CCC(N)=O)C(=O)N[C@@H](CCC(N)=O)C(=O)N[C@@H](CCCCN)C(=O)N[C@@H](CCCCN)C(=O)N[C@@H](CC(N)=O)C(=O)N[C@@H](CCC(=O)O)C(=O)N[C@@H](CCCCN)C(N)=O [MT-SC31EK]
IC50 [1]: 900 ± 400 pM
CD data (with N36) Tm (°C) [2]: 76.7 °C

CC[C@H](C)[C@H](NC(=O)[C@H](CC(C)C)NC(=O)[C@H](CCC(=O)O)NC(=O)[C@H](CCC(=O)O)NC(=O)[C@@H](NC(=O)[C@H](CCCCN)NC(=O)[C@H](CCCCN)NC(=O)[C@@H](NC(=O)[C@H](Cc1ccc(O)cc1)NC(=O)[C@H](CCC(=O)O)NC(=O)[C@H](CCC(=O)O)NC(=O)[C@@H](NC(=O)[C@H](CCCCN)NC(=O)[C@H](CCCCN)NC(=O)[C@H](CC(=O)O)NC(=O)[C@H](Cc1c[nH]c2ccccc12)NC(=O)[C@H](CCC(=O)O)NC(=O)[C@H](CCC(=O)O)NC(=O)[C@H](Cc1c[nH]c2ccccc12)NC(=O)[C@@H](NC(=O)[C@H](CCSC)NC(C)=O)[C@@H](C)O)[C@@H](C)CC)[C@@H](C)O)[C@@H](C)CC)C(=O)N[C@@H](CCCCN)C(=O)N[C@@H](CCCCN)C(=O)N[C@@H](CO)C(=O)N[C@@H](CCC(=O)O)C(=O)N[C@@H](CCC(=O)O)C(=O)N[C@@H](CCC(N)=O)C(=O)N[C@@H](CCC(N)=O)C(=O)N[C@@H](CCCCN)C(=O)N[C@@H](CCCCN)C(=O)N[C@@H](CC(N)=O)C(=O)N[C@@H](CCC(=O)O)C(=O)N[C@@H](CCCCN)C(=O)N[C@@H](CCC(=O)O)C(N)=O [MT-SC32EK]
IC50 [1]: 1100 ± 300 pM
CD data (with N36) Tm (°C) [2]: 78.6 °C

CC[C@H](C)[C@H](NC(=O)[C@H](CC(C)C)NC(=O)[C@H](CCC(=O)O)NC(=O)[C@H](CCC(=O)O)NC(=O)[C@@H](NC(=O)[C@H](CCCCN)NC(=O)[C@H](CCCCN)NC(=O)[C@@H](NC(=O)[C@H](Cc1ccc(O)cc1)NC(=O)[C@H](CCC(=O)O)NC(=O)[C@H](CCC(=O)O)NC(=O)[C@@H](NC(=O)[C@H](CCCCN)NC(=O)[C@H](CCCCN)NC(=O)[C@H](CC(=O)O)NC(=O)[C@H](Cc1c[nH]c2ccccc12)NC(=O)[C@H](CCC(=O)O)NC(=O)[C@H](CCC(=O)O)NC(=O)[C@H](Cc1c[nH]c2ccccc12)NC(=O)[C@@H](NC(=O)[C@H](CCSC)NC(C)=O)[C@@H](C)O)[C@@H](C)CC)[C@@H](C)O)[C@@H](C)CC)C(=O)N[C@@H](CCCCN)C(=O)N[C@@H](CCCCN)C(=O)N[C@@H](CO)C(=O)N[C@@H](CCC(=O)O)C(=O)N[C@@H](CCC(=O)O)C(=O)N[C@@H](CCC(N)=O)C(=O)N[C@@H](CCC(N)=O)C(=O)N[C@@H](CCCCN)C(=O)N[C@@H](CCCCN)C(=O)N[C@@H](CC(N)=O)C(=O)N[C@@H](CCC(=O)O)C(=O)N[C@@H](CCCCN)C(=O)N[C@@H](CCC(=O)O)C(=O)N[C@@H](CC(C)C)C(N)=O [MT-SC33EK]
IC50 [1]: 800 ± 200 pM
CD data (with N36) Tm (°C) [2]: 84.9 °C

CC[C@H](C)[C@H](NC(=O)[C@H](CC(C)C)NC(=O)[C@H](CCC(=O)O)NC(=O)[C@H](CCC(=O)O)NC(=O)[C@@H](NC(=O)[C@H](CCCCN)NC(=O)[C@H](CCCCN)NC(=O)[C@@H](NC(=O)[C@H](Cc1ccc(O)cc1)NC(=O)[C@H](CCC(=O)O)NC(=O)[C@H](CCC(=O)O)NC(=O)[C@@H](NC(=O)[C@H](CCCCN)NC(=O)[C@H](CCCCN)NC(=O)[C@H](CC(=O)O)NC(=O)[C@H](Cc1c[nH]c2ccccc12)NC(=O)[C@H](CCC(=O)O)NC(=O)[C@H](CCC(=O)O)NC(=O)[C@H](Cc1c[nH]c2ccccc12)NC(=O)[C@@H](NC(=O)[C@H](CCSC)NC(C)=O)[C@@H](C)O)[C@@H](C)CC)[C@@H](C)O)[C@@H](C)CC)C(=O)N[C@@H](CCCCN)C(=O)N[C@@H](CCCCN)C(=O)N[C@@H](CO)C(=O)N[C@@H](CCC(=O)O)C(=O)N[C@@H](CCC(=O)O)C(=O)N[C@@H](CCC(N)=O)C(=O)N[C@@H](CCC(N)=O)C(=O)N[C@@H](CCCCN)C(=O)N[C@@H](CCCCN)C(=O)N[C@@H](CC(N)=O)C(=O)N[C@@H](CCC(=O)O)C(=O)N[C@@H](CCCCN)C(=O)N[C@@H](CCC(=O)O)C(=O)N[C@@H](CC(C)C)C(=O)N[C@@H](CCCCN)C(N)=O [MT-SC34EK]
IC50 [1]: 700 ± 200 pM
CD data (with N36) Tm (°C) [2]: 83 °C

CC[C@H](C)[C@H](NC(=O)[C@H](CC(C)C)NC(=O)[C@H](CCC(=O)O)NC(=O)[C@H](CCC(=O)O)NC(=O)[C@@H](NC(=O)[C@H](CCCCN)NC(=O)[C@H](CCCCN)NC(=O)[C@@H](NC(=O)[C@H](Cc1ccc(O)cc1)NC(=O)[C@H](CCC(=O)O)NC(=O)[C@H](CCC(=O)O)NC(=O)[C@@H](NC(=O)[C@H](CCCCN)NC(=O)[C@H](CCCNC(=N)N)NC(=O)[C@H](CC(=O)O)NC(=O)[C@H](Cc1c[nH]c2ccccc12)NC(=O)[C@H](CCC(=O)O)NC(=O)[C@H](CCC(=O)O)NC(=O)[C@H](Cc1c[nH]c2ccccc12)NC(=O)[C@@H](NC(=O)[C@H](CCSC)NC(C)=O)[C@@H](C)O)[C@@H](C)CC)[C@@H](C)O)[C@@H](C)CC)C(=O)N[C@@H](CCCCN)C(=O)N[C@@H](CCCCN)C(=O)N[C@@H](CO)C(=O)N[C@@H](CCC(N)=O)C(=O)N[C@@H](CC(N)=O)C(=O)N[C@@H](CCC(N)=O)C(=O)N[C@@H](CCC(N)=O)C(=O)N[C@@H](CCC(=O)O)C(=O)N[C@@H](CCCCN)C(=O)N[C@@H](CC(N)=O)C(N)=O [MT-WQ-EKN]
IC50 [1]: 800 ± 100 pM
CD data (with N36) Tm (°C) [2]: 74.3 °C
